Pooled drug test results. Numbers come from NIAID ChemDB, via PubChem.

Common to all: tests in culture; species: Mycobacterium smegmatis

Neighbouring rows are from separate reports. A number after MIC or MFC names an inhibition level or a share of isolates.

structure,read-out,strain or isolate,value
CN(C)[C@@H]1C(=O)C(C(N)=O)=C(O)[C@@]2(O)C(=O)C3=C(O)c4c(O)cccc4[C@@](C)(O)[C@H]3C[C@@H]12,MIC,PMN1 LFR,8 µg/mL
COc1c(N2CC(C)NC(C)C2)c(F)cc2c(=O)c(C(=O)O)cn(C3CC3)c12,MIC99,KD1990 (GYRA D95A),0.28 µg/mL
COc1c(N2CCNC(C)C2)c(F)cc2c(=O)c(C(=O)O)cn(C3CC3)c12,MIC,ATCC 19420,0.06 µg/mL
CC(C)N1CCN(c2c(F)cc3c(=O)c(C(=O)O)cn(C4CC4)c3c2F)CC1,MIC99,KD1163 (GRYA+),0.31 µg/mL
Cc1c(F)c(N2CCC(N)C2)cc2c(C3CC3)cc(C(=O)O)c(=O)n12.Cl,MIC,ATCC114,1.56 µg/mL
CC(C)N1CCN(c2cc3c(cc2F)c(=O)c(C(=O)O)cn3C2CC2)CC1,MIC99,KD1990 (GYRA D95A),1.5 µg/mL
Cc1c(N2CC[C@@H](N(C)C)C2)c(F)cn2c(=O)c(C(=O)O)cc(C3CC3)c12,MIC,ATCC114,0.2 µg/mL
CCC1CN(c2cc3c(cc2F)c(=O)c(C(=O)O)cn3C2CC2)CCN1,MIC99,KD1998 (GYRA D95N),3.6 µg/mL
Cc1c(N2CCC(C(C)N)C2)c(F)cn2c(=O)c(C(=O)O)cc(C3CC3)c12.Cl,MIC,ATCC114,0.01 µg/mL
CC1CN(c2cc3c(cc2F)c(=O)c(C(=O)O)cn3C2CC2)CC(C)N1,MIC99,KD1998 (GYRA D95N),3.4 µg/mL
CNCC1CCN(c2c(F)cc3c(=O)c(C(=O)O)cn(-c4ccc(F)cc4F)c3c2OC)C1,MIC,ATCC 19420,2 µg/mL
CC1CN(c2c(F)cc3c(=O)c(C(=O)O)cn(C4CC4)c3c2F)CCN1,MIC99,KD2012 (GYRA G89A),0.24 µg/mL
CCCCCCCCCCCCCCCC[N+](C)(C)CC,MIC,PMN1 LFR (CCCP),8 µg/mL
COc1c(N2CCNCC2)c(F)cc2c(=O)c(C(=O)O)cn(C3CC3)c12,MIC99,KD2003 (GYRA D95G),0.83 µg/mL
CCOc1c(N2CCC(N)C2)c(F)cc2c(=O)c(C(=O)O)cn(C3CC3)c12,MIC,ATCC 19420,0.13 µg/mL
Cc1c(N2C[C@@H](N)[C@@H](F)C2)c(F)cn2c(=O)c(C(=O)O)cc(C3CC3)c12.Cl,MIC,ATCC114,0.1 µg/mL
CCN1CCN(c2c(F)cc3c(=O)c(C(=O)O)cn(C4CC4)c3c2F)CC1,MIC99,KD2003 (GYRA D95G),2.6 µg/mL
CC1CN(c2nc3c(cc2F)c(=O)c(C(=O)O)cn3C2CC2)CC(C)N1,MIC,ATCC 19420,0.5 µg/mL
C[C@H]1c2cccc(O)c2C(O)=C2C(=O)[C@]3(O)C(O)=C(C(N)=O)C(=O)[C@@H](N(C)C)[C@@H]3[C@@H](O)[C@@H]21,Median MIC,6 strains,0.06 µg/mL
CNCC1CCN(c2c(F)cc3c(=O)c(C(=O)O)cn(C4CC4)c3c2Cl)C1,MIC,ATCC 19420,0.06 µg/mL
CCC1CN(c2c(F)cc3c(=O)c(C(=O)O)cn(C4CC4)c3c2OC)CCN1,MIC99,KD2012 (GYRA G89A),0.28 µg/mL
Cc1c(SCCN)c(F)cn2c(=O)c(C(=O)O)cc(C3CC3)c12.O=C(O)C(F)(F)F,MIC,ATCC114,0.78 µg/mL
NC1CCN(c2c(F)cc3c(=O)c(C(=O)O)cn(C4CC4)c3c2F)C1,MIC,ATCC 19420,0.06 µg/mL
Cl.NC1CCN(c2c(F)cn3c(=O)c(C(=O)O)cc(C4CC4)c3c2F)C1,MIC,ATCC114,0.2 µg/mL
NC1CCN(c2nc3c(cc2F)c(=O)c(C(=O)O)cn3-c2ccc(F)cc2F)C1,MIC,ATCC 19420,0.13 µg/mL
COC1CN(c2c(F)cn3c(=O)c(C(=O)O)cc(C4CC4)c3c2C)CC1N.Cl,MIC,ATCC114,0.2 µg/mL
COc1c(N2CC(C)NC(C)C2)c(F)cc2c(=O)c(C(=O)O)cn(C3CC3)c12,MIC,ATCC 19420,0.13 µg/mL
Cc1c(N2CCC(C)(N)CC2)c(F)cn2c(=O)c(C(=O)O)cc(C3CC3)c12.Cl,MIC,ATCC114,0.05 µg/mL
CC1CN(c2nc3c(cc2F)c(=O)c(C(=O)O)cn3C2CC2)CCN1,MIC,ATCC 19420,0.5 µg/mL

Repeating the first 2 entries:

structure,read-out,strain or isolate,value
CN(C)[C@@H]1C(=O)C(C(N)=O)=C(O)[C@@]2(O)C(=O)C3=C(O)c4c(O)cccc4[C@@](C)(O)[C@H]3C[C@@H]12,MIC,PMN1 LFR,8 µg/mL
COc1c(N2CC(C)NC(C)C2)c(F)cc2c(=O)c(C(=O)O)cn(C3CC3)c12,MIC99,KD1990 (GYRA D95A),0.28 µg/mL